Assay: Oxidation of indigo carmine 1 and 18O incorporation into cyclic α-ketoamide 2 by reactive oxygen species
Details: for Reaction to form 2: indigo carmine 1 (1 mM) in PB pH 7.4, room temperature, oxidant conditions per footnotes

| SMILES | Reaction to form 2 | 18O incorporation into 2 (PB 100 mM pH 7.4 with H2 18O (>95%), negative ion ESI-MS) |
| --- | --- | --- |
| OO [Clone H2O2, hydrogen peroxide] | No |  |
| O=O [^1O2*, singlet oxygen] | Yes | no |
| OCl [HOC1, Hypochlorous acid] | No |  |

— patent publication US20070009537A1, “Antimicrobial activity of antibodies producing reactive oxygen species” (priority 2002, published 2007)
